Values joined by “and” are separate entries in the source; they are usually repeats but may differ in a detail not shown here. Equal entries are not always repeated.

The target in one experiment is PieA. In words: bio-layer interferometry. The conditions noted are these: parent: 0.23 ± 0.023.
Experiment [1] deals with (His)10-MBP-DotL(656-783)–IcmSW–LvgA(I153E) (Legionella pneumophila) (UniProt Q5ZYC6). In words: BLI. In general terms: Biolayer interferometry detects binding as a change in optical thickness at a sensor tip.
Experiment [2] deals with (His)10-MBP-DotL(656-783)–IcmSW–LvgA (Legionella pneumophila) (UniProt Q5ZYC6). In words: BLI.

On to “(His)10-MBP-DotL(656-783)–IcmSW–LvgA (from UniProt Q5ZYC6;Q5ZYD0;Q5ZS31;Q5ZY48) LvgA:I153E”, for which the dissociation constant Kd in the experiment with PieA is 2950 nM. With PieA (natural protein), in experiment [1], the fold increase of KD against the wild-type complex is 13 fold; the on-rate constant (kon) was 4230 M⁻¹ s⁻¹ and 3050 M⁻¹ s⁻¹ and 3640 M⁻¹ s⁻¹. Take “SidH(1830-2200;F2191A) (domain or fragment)”: the association rate constant (kon) in experiment [2] is 683 M⁻¹ s⁻¹ and 303 M⁻¹ s⁻¹ and 493 M⁻¹ s⁻¹. “SidH(1830-2200;L2195A) (domain or fragment)”: the on-rate (kon) in experiment [2] was 401 M⁻¹ s⁻¹ and 504 M⁻¹ s⁻¹ and 452 M⁻¹ s⁻¹. Still for that read-out and setting: the same measure for VpdB(11-590) (domain or fragment): 56800 1/(M s) and 68400 1/(M s) (2×) and 64600 1/(M s); for VpdB(11-590) F483A (domain or fragment): 5710 M⁻¹ s⁻¹ and 5020 M⁻¹ s⁻¹ and 5370 M⁻¹ s⁻¹; for VpdB(11-590) K470A (domain or fragment): 6070 M⁻¹ s⁻¹ and 7540 M⁻¹ s⁻¹ and 6800 M⁻¹ s⁻¹.

On to VpdB(11-590) K484A (domain or fragment), for which, in experiment [2], the fold increase of KD against VpdB(11-590) amounted to 9 times; the kon was 2020 M⁻¹ s⁻¹ and 1940 M⁻¹ s⁻¹ and 1980 M⁻¹ s⁻¹. Turning to VpdB(11-590) L480A (domain or fragment), in experiment [2], the fold increase of KD against VpdB(11-590) is 14 times; the kon was 1110 M⁻¹ s⁻¹ and 882 M⁻¹ s⁻¹ and 996 M⁻¹ s⁻¹. As for VpdB(11-590) T473A (domain or fragment), in experiment [2], the kon is 5140 M⁻¹ s⁻¹ and 4350 M⁻¹ s⁻¹ and 4750 M⁻¹ s⁻¹.

Broadly, the Kd is a measure of binding affinity in units of concentration. What is called kon is a measure of how fast the partners come together. Low values mean slower complex formation, high ones faster complex formation.

These data come from article PMC7251119, “Structural basis for effector protein recognition by the Dot/Icm Type IVB coupling protein complex” (2020).
